Anti-infective test results gathered from many reports (values: NIAID ChemDB through PubChem).

All rows: tests on isolated targets; agent: HIV-1; protein: Reverse transcriptase

a–b is a range or a potency band. Rows are shuffled and stem from different studies. ICn is the concentration giving n% inhibition. Blank or dashed fields: not listed here.

| compound | strain | mutations | method | read-out | result |
|---|---|---|---|---|---|
| Cc1ccc(-n2c(SCC(=O)Nc3ccc(S(=O)(=O)NC(C(=O)O)C(C)C)cc3Cl)nnc2C(F)F)c2c1CCCC2 |  | RT-Y188L | nucleotide incorporation / radiometric | IC50 | >0.1 µM |
| CCN1c2ncc(CCOc3cccc(-c4ccc(C(=O)O)cc4)c3)cc2C(=O)N(C)c2cccnc21 | IIIB |  | nucleotide incorporation / radiometric | IC50 | >0.1 µM |
| CCc1ccc(-n2c(Br)nnc2SCC(=O)Nc2ccc(S(=O)(=O)O)cc2Br)c2ccccc12 |  | RT-Y188L | nucleotide incorporation / radiometric | IC50 | 0.05–0.1 µM |
| Cc1cc(C)cc(S(=O)(=O)c2c(C(N)=O)[nH]c3ccc(Cl)cc23)c1 |  | RT-V179D | nucleotide incorporation / radiometric | IC50 | 0.05 µM |
| Cc1cc(S(N)(=O)=O)ccc1NC(=O)CSc1nnc(Br)n1-c1c(Cl)cc(C2CCC2)c2ccccc12 |  | RT-Y181C | nucleotide incorporation / radiometric | IC50 | <0.05 µM |
| CCN1c2ncc(CCOc3ccc(C(=O)Nc4ccc(C(=O)O)cn4)cc3C)cc2C(=O)N(C)c2cccnc21 | IIIB | RT-K103N Y181C | nucleotide incorporation / radiometric | IC50 | <0.05 µM |
| CC(C)C[C@H](NC(=O)c1ccc(NC(=O)CSc2nnc(Br)n2-c2ccc(C3CC3)c3ccccc23)c(Cl)c1)C(=O)O |  |  | nucleotide incorporation / radiometric | IC50 | <0.05 µM |
| CCN1c2ncc(CCOc3cccc4c3ccc[n+]4[O-])cc2C(=O)N(C)c2ccc(Cl)nc21 |  | RT-Y188L | nucleotide incorporation / radiometric | IC50 | 0.439 µM |
| Cc1cc(S(N)(=O)=O)ccc1NC(=O)CSc1nnc(C(F)F)n1-c1ccc(C)c2c1CCCC2 |  | RT-Y188L | nucleotide incorporation / radiometric | IC50 | >0.1 µM |
| CC(C)(C)c1ccc(-n2nnnc2SCC(=O)Nc2ccc(OCC(=O)Nc3nc(C(=O)O)cs3)cc2Cl)c(Cl)c1 |  | RT-K103 Y181C | PicoGreen / fluorescence | IC50 | <1 µM |
| Nc1ncnc2c1ncn2[C@H]1CC[C@@H](COP(=O)(O)OP(=O)(O)OP(=O)(O)O)O1 |  | RT-F116Y | nucleotide incorporation / radiometric | IC50 | 5.5 µM |
| CCN1c2ncc(CCOc3ccc(C(=O)NCc4cc[n+]([O-])cc4)cc3C)cc2C(=O)N(C)c2cccnc21 | IIIB | RT-K103N Y181C | nucleotide incorporation / radiometric | IC50 | 0.05–0.1 µM |
| Cc1cc(C)cc(S(=O)(=O)c2c(C(N)=O)[nH]c3ccc(F)c(F)c23)c1 |  | RT-K103N | nucleotide incorporation / radiometric | IC50 | 0.75 µM |
| CCN1c2ncc(CCOc3ccc(-c4ccc(C(=O)O)s4)cc3)cc2C(=O)N(C)c2cccnc21 | IIIB |  | nucleotide incorporation / radiometric | IC50 | <0.05 µM |
| CCc1ccc(-n2c(Br)nnc2SCC(=O)Nc2ccc(C(=O)NCCN(C)C)cc2Cl)c2ccccc12 |  |  | nucleotide incorporation / radiometric | IC50 | <0.05 µM |
| NCCCCNc1nc(Cc2ccccc2)cc(=O)[nH]1 |  | RT-Y188L |  | Ki | >1000 µM |
| O=C(CSc1nnc(Br)n1-c1c(Cl)cc(C2CCC2)c2ccccc12)Nc1ccc(C(=O)O)cc1Cl |  | RT-Y188L | nucleotide incorporation / radiometric | IC50 | 0.05–0.1 µM |
| Cc1c(Cc2ccccc2)nc(SCCCCO)[nH]c1=O |  |  |  | Ki | 70 µM |
| Cc1cc(S(N)(=O)=O)ccc1NC(=O)CSc1nnc(Br)n1-c1ccc(C2CC2)c2ccccc12 |  | RT-Y188L | nucleotide incorporation / radiometric | IC50 | >0.1 µM |
| CCCN1C(=O)c2ccnnc2N(CC)c2ccccc21 |  |  |  | IC50 | <330 µM |
| CC(C)(C)c1ccc(-n2nnnc2SCC(=O)Nc2ccc(NC(=O)Cc3ccccn3)cc2Cl)c(Cl)c1 |  | RT-K103 Y181C | PicoGreen / fluorescence | IC50 | <1 µM |
| Cc1cc(C)c2ccccc2c1-n1c(SCC(=O)Nc2ccc(S(N)(=O)=O)cc2Cl)nnc1C(F)F |  | RT-Y181C | nucleotide incorporation / radiometric | IC50 | <0.05 µM |
| CC(C)(C)c1ccc(-n2nnnc2SCC(=O)Nc2ccc(OCC(=O)Nc3ccc(CC(=O)O)cc3)cc2Cl)c(Cl)c1 |  | RT-K103 Y181C | PicoGreen / fluorescence | IC50 | <1 µM |
| CCCN1c2ccc(C)cc2N(C)C(=O)c2ccnnc21 |  |  |  | IC50 | >330 µM |
| CCN1c2ncc(CCc3ccncc3)cc2C(=O)N(C)c2ccc(I)nc21 | WT |  | nucleotide incorporation / radiometric | IC50 | <1 µM |
| O=C(CSc1nnnn1-c1ccc(C2CC2)cc1Cl)Nc1ccc(OCC(=O)N2CCC(C(=O)O)CC2)cc1Cl | WT |  | PicoGreen / fluorescence | IC50 | <1 µM |
| CCc1ccc(-n2c(Br)nnc2SCC(=O)Nc2ccc(C(=O)NCC3CCCO3)cc2Cl)c2ccccc12 |  | RT-Y181C | nucleotide incorporation / radiometric | IC50 | 0.05–0.1 µM |
| CCN1c2ncc(CCOc3ccc(-c4ccc(C(=O)O)cc4)cc3)cc2C(=O)N(C)c2ccc(Cl)nc21 | IIIB |  | nucleotide incorporation / radiometric | IC50 | <0.05 µM |
| CC(C)(C#Cc1ccc(NC(=O)CSc2nnnn2-c2cc(C3CC3)ccc2Cl)c(Cl)c1F)OCCN1CCNCC1 | WT |  | PicoGreen / fluorescence | IC50 | <1 µM |
| O=C(O)CCNC(=O)c1ccc(NC(=O)CSc2nnc(Br)n2-c2ccc(C3CC3)c3ccccc23)c(Cl)c1 |  | RT-Y188L | nucleotide incorporation / radiometric | IC50 | >0.1 µM |
| CC(C)(C)c1ccc(-n2nnnc2SCC(=O)Nc2ccc(OCC(=O)NCCN3CCOCC3)cc2Cl)c(Cl)c1 |  | RT-K103 Y181C | PicoGreen / fluorescence | IC50 | <1 µM |
| CCN1c2ncc(CCOc3ccc(-c4ccn(CC(=O)O)n4)cc3)cc2C(=O)N(C)c2cccnc21 | IIIB | RT-K103N Y181C | nucleotide incorporation / radiometric | IC50 | >0.1 µM |
| CCc1ccc(-n2c(Br)nnc2SCC(=O)Nc2ccc(C(=O)N3CCCCC3CO)cc2Cl)c2ccccc12 |  |  | nucleotide incorporation / radiometric | IC50 | <0.05 µM |
| C=CCO/N=C/c1cc(NC(=S)c2ccoc2C)ccc1Cl |  | RT-Y188H | nucleotide incorporation / radiometric | IC50 | 7 µM |
| CCCCCCNC(=O)c1ccc(NC(=O)CSc2nnc(Br)n2-c2ccc(CC)c3ccccc23)c(Cl)c1 |  | RT-Y188L | nucleotide incorporation / radiometric | IC50 | >0.1 µM |
| CCN1c2ncc(CCc3ccc4cc[nH]c4c3)cc2C(=O)N(C)c2ccc(Cl)nc21 | WT |  | nucleotide incorporation / radiometric | IC50 | <1 µM |
| Cc1ccc(-n2nnnc2SCC(=O)Nc2ccc(-c3ccc(CCO)cc3)cc2Cl)c(Cl)c1 |  | RT-K103 Y181C | PicoGreen / fluorescence | IC50 | <1 µM |
| O=C(CSc1nnc(Br)n1-c1ccc(C2CC2)c2ccccc12)Nc1ccc(C(=O)N[C@@H](Cc2ccc(O)cc2)C(=O)O)cc1Cl |  | RT-Y188L | nucleotide incorporation / radiometric | IC50 | 0.05–0.1 µM |
| CC(C)(C#Cc1ccc(NC(=O)CSc2nnnn2-c2cc(C3CC3)ccc2Cl)c(Cl)c1)NC(=O)CN1CCNCC1 | WT |  | PicoGreen / fluorescence | IC50 | <1 µM |
| CCN1c2ncc(CCOc3ccc(-c4cocn4)cc3C)cc2C(=O)N(C)c2cccnc21 | IIIB | RT-K103N Y181C | nucleotide incorporation / radiometric | IC50 | <0.05 µM |
| COC(=O)NCCCCNc1nc(Cc2ccccc2)c(C)c(=O)[nH]1 |  | RT-L100I |  | Ki | 70 µM |
| Nc1nc2c(ncn2[C@H]2CC[C@@H](COP(=O)(O)OP(=O)(O)OP(=O)(O)O)O2)c(=O)[nH]1 |  | RT-Q151M | nucleotide incorporation / radiometric | Ki | 0.027 µM |
| CCCN1C(=O)c2cc(Cl)nnc2N(CCC)c2ccccc21 |  |  |  | IC50 | <330 µM |
| CCN(CC)CC#Cc1ccc(NC(=O)CSc2nnnn2-c2ccc(C(C)(C)C)cc2Cl)c(Cl)c1 |  | RT-K103 Y181C | PicoGreen / fluorescence | IC50 | <1 µM |
| Cc1occc1C(=S)Nc1ccc(Cl)c(C(=O)OCC2CC2)c1 |  | RT-K103N | nucleotide incorporation / radiometric | IC50 | >50 µM |
| CC(C)(C#Cc1ccc(NC(=O)CSc2nnnn2-c2ccc(C(C)(C)C)cc2Cl)c(Cl)c1)C(=O)NC1CC1 |  | RT-K103 Y181C | PicoGreen / fluorescence | IC50 | <1 µM |
| NS(=O)(=O)c1ccc(NC(=O)CSc2nnc(Cl)n2-c2ccc(C3CC3)c3ccccc23)c(Cl)c1 |  | RT-Y181C | nucleotide incorporation / radiometric | IC50 | <0.05 µM |
| CCN1c2ncc(CCOc3ccc(-c4ccc(C(=O)O)cc4)c(Cl)c3)cc2C(=O)N(C)c2cccnc21 | IIIB |  | nucleotide incorporation / radiometric | IC50 | <0.05 µM |
| CC(C)(C)c1ccc(-n2nnnc2SCC(=O)Nc2ccc(C(=O)N3CCC(C(=O)O)CC3)cc2Cl)c(Cl)c1 | WT |  | PicoGreen / fluorescence | IC50 | <1 µM |
| CCN1c2ncc(CCc3ccccc3N)cc2C(=O)N(C)c2ccc(Cl)nc21 | WT |  | nucleotide incorporation / radiometric | IC50 | <1 µM |
| CC(C)(C)c1ccc(-n2nnnc2SCC(=O)Nc2ccc(C(=O)NCc3ccc(N)cc3)cc2Cl)c(Cl)c1 | WT |  | PicoGreen / fluorescence | IC50 | <1 µM |
| NS(=O)(=O)c1ccc(NC(=O)CSc2nnc(Br)n2-c2ccc(C3CC3)cc2)c(Cl)c1 |  | RT-Y188L | nucleotide incorporation / radiometric | IC50 | >0.1 µM |
| CC(C)(C)c1ccc(-n2nnnc2SCC(=O)Nc2ccc(-c3ccc(CCC(=O)O)cc3)cc2Cl)c(Cl)c1 | WT |  | PicoGreen / fluorescence | IC50 | <1 µM |
| Cc1occc1C(=S)Nc1ccc(Cl)c(/C=N/OC(C)(C)C)c1 |  | RT-Y188H | nucleotide incorporation / radiometric | IC50 | 17 µM |
| COC(C(=O)Nc1ccc(NC(=O)CSc2nnnn2-c2ccc(C(C)(C)C)cc2Cl)c(Cl)c1)c1ccccc1 | WT |  | PicoGreen / fluorescence | IC50 | <1 µM |
| CCCN1C(=O)c2cc(Cl)nnc2N(C2CC2)c2ccccc21 |  |  |  | IC50 | <330 µM |
| COC(=O)c1ccc(-c2ccc(NC(=O)CSc3nnnn3-c3ccc(C(C)(C)C)cc3Cl)c(Cl)c2)cc1 | WT |  | PicoGreen / fluorescence | IC50 | <1 µM |
| CCN1c2ncc(CC(O)c3ccncc3)cc2C(=O)N(C)c2cccnc21 | WT |  | nucleotide incorporation / radiometric | IC50 | >1 µM |
| CC(C)(C#Cc1ccc(NC(=O)CSc2nnnn2-c2ccc(C3CC3)cc2Cl)c(Cl)c1)NC(=O)CN1CCC(C(=O)O)CC1 |  | RT-K103 Y181C | PicoGreen / fluorescence | IC50 | <1 µM |
| Cc1cc(C)c2ccccc2c1-n1c(CF)nnc1SCC(=O)Nc1ccc(S(N)(=O)=O)cc1Cl |  | RT-Y181C | nucleotide incorporation / radiometric | IC50 | <0.05 µM |
| CC(C)(C#Cc1ccc(NC(=O)CSc2nnnn2-c2cc(C(C)(C)C)ccc2Cl)c(Cl)c1)NC(=O)CN1CCNCC1 | WT |  | PicoGreen / fluorescence | IC50 | <1 µM |
| Cc1cc(S(N)(=O)=O)ccc1NC(=O)COc1ccccc1C(=O)c1cc(Cl)cc(C#N)c1 | NNRTI-resistant | RT-K103N | fluorescence | IC50 | 0.0106 µM |
| CC(C)(C#Cc1ccc(NC(=O)CSc2nnnn2-c2ccc(C3CC3)cc2Cl)c(Cl)c1)NCC1CC1 |  | RT-K103 Y181C | PicoGreen / fluorescence | IC50 | <1 µM |
| CCOC(=O)CN(C)C(=O)c1ccc(NC(=O)CSc2nnc(Br)n2-c2ccc(CC)c3ccccc23)c(Cl)c1 |  | RT-Y188L | nucleotide incorporation / radiometric | IC50 | >0.1 µM |
| CC(C)(C#Cc1ccc(NC(=O)CSc2nnnn2-c2ccc(CC3CC3)cc2Cl)c(Cl)c1)C(=O)NCCCN1CCCC1=O | WT |  | PicoGreen / fluorescence | IC50 | <1 µM |
| NS(=O)(=O)c1ccc(NC(=O)CSc2nnc(C(F)F)n2-c2ccc(C3CC3)c3ccccc23)c(Cl)c1 |  |  | nucleotide incorporation / radiometric | IC50 | <0.05 µM |

Repeating the final 7 entries:

compound | strain | mutations | method | read-out | result
Cc1cc(C)c2ccccc2c1-n1c(CF)nnc1SCC(=O)Nc1ccc(S(N)(=O)=O)cc1Cl |  | RT-Y181C | nucleotide incorporation / radiometric | IC50 | <0.05 µM
CC(C)(C#Cc1ccc(NC(=O)CSc2nnnn2-c2cc(C(C)(C)C)ccc2Cl)c(Cl)c1)NC(=O)CN1CCNCC1 | WT |  | PicoGreen / fluorescence | IC50 | <1 µM
Cc1cc(S(N)(=O)=O)ccc1NC(=O)COc1ccccc1C(=O)c1cc(Cl)cc(C#N)c1 | NNRTI-resistant | RT-K103N | fluorescence | IC50 | 0.0106 µM
CC(C)(C#Cc1ccc(NC(=O)CSc2nnnn2-c2ccc(C3CC3)cc2Cl)c(Cl)c1)NCC1CC1 |  | RT-K103 Y181C | PicoGreen / fluorescence | IC50 | <1 µM
CCOC(=O)CN(C)C(=O)c1ccc(NC(=O)CSc2nnc(Br)n2-c2ccc(CC)c3ccccc23)c(Cl)c1 |  | RT-Y188L | nucleotide incorporation / radiometric | IC50 | >0.1 µM
CC(C)(C#Cc1ccc(NC(=O)CSc2nnnn2-c2ccc(CC3CC3)cc2Cl)c(Cl)c1)C(=O)NCCCN1CCCC1=O | WT |  | PicoGreen / fluorescence | IC50 | <1 µM
NS(=O)(=O)c1ccc(NC(=O)CSc2nnc(C(F)F)n2-c2ccc(C3CC3)c3ccccc23)c(Cl)c1 |  |  | nucleotide incorporation / radiometric | IC50 | <0.05 µM